Article PMC7863910, “A novel stress-inducible CmtR-ESX3-Zn^2+ regulatory pathway essential for survival of Mycobacterium bovis under oxidative stress” (The Journal of Biological Chemistry, 2020)

Tests used:
CmtR-C24S = molecular target: T1, CmtR-C24S (UniProt P9WMI9); experiment: EMSA; settings: recombinant protein; residues 1-118; protein details: His-tag (pET28a); probe letters rebuilt from the primers and the genome
T1 sequence (looked up): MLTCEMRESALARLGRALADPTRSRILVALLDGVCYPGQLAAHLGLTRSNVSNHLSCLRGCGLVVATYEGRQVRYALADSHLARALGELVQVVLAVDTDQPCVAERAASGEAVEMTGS

CmtR-C4S = molecular target: T2, CmtR-C4S (UniProt P9WMI9); experiment: EMSA; settings: recombinant protein; residues 1-118; protein details: His-tag (pET28a); probe letters rebuilt from the primers and the genome
T2 sequence (looked up): T1 sequence (looked up) with C4S, S24C

“GATTCCCGCATCTCACACGTCAGCATAGATCAAATAGTACACCATATACTGGTATAACAGCAAGAGCTGAATTGTACATCCATAGCAGATATGATCGGCGCGCGTCACAAGCTTCCGGCCGCAGAGCCGCCAACTCACGATATCGTTAACCGATATCCCGAGCCGATAGCTGGCGGGCTCGGGTGGTGGCCAGCGGCGCTGCGACGAAAGGTGTGACCGTCATGAAACAGACACCACCGGCGGCCGTCGGCCGTCGTCACCTGCTCGAGATCTCAGCATCCGCAGCCGGTGTGATCGCGCTTTCGGCGTGTAGTGGGTCGCCGCCCGAGCCCGGCAAAGGCCGGCCCGACACAACCCCGGAACAGGAAGTCCC (double strand) [cmtRp]”: binds (CmtR-C24S); binds (CmtR-C4S).

Where a chain is given by its changes, count along the chain named. Protein sequences can lack the tags named with them.
